Our source for the IC50 values is patent publication US6881741B2 (ViroChem Pharma Inc., priority 2001, dated 2005).

Amino acid sequences for entries named in this document (tags omitted). Residues count along the entry.
UniProt P26663, 2420-3010 limits assumed: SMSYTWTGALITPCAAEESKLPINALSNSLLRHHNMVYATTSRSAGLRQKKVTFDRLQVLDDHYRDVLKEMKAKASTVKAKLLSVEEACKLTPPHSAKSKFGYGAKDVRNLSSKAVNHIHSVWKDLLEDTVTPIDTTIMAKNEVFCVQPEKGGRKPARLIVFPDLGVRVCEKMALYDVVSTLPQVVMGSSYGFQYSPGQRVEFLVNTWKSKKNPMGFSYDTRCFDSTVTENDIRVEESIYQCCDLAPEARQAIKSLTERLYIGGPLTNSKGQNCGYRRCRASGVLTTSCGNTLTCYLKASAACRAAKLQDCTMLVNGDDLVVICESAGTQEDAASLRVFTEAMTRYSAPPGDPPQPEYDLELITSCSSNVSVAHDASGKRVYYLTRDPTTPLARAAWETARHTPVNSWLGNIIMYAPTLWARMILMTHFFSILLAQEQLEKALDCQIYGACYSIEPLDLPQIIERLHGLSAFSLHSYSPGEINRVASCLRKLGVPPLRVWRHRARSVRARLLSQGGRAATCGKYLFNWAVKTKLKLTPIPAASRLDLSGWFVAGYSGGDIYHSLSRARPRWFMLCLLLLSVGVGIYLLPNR

pIC50: −log10 of the molar value. Where two headings read alike, the source gives them in different places. Some results are limits rather than exact numbers.

For the experiment, the target named is recombinant HCV NS5B (HCV RNA-dependent RNA polymerase) (Hepatitis C virus genotype 1b, UniProt P26663). Description: In vitro HCV RdRp Flashplate scintillation proximity assay (STREP-FLASH ASSAY). It is filed as biochemical. On the technique in general: In a scintillation proximity assay essentially only radioactivity close to the scintillant gives light.
Where [1] appears, read: read-out: IC50 (polymerase activity), HCV polymerase activity, list of compounds of Example 27.
[2] abbreviates: related polymerase activity (Example 27 list).

As for `CC1CCC(C(=O)N(c2cc(-c3ccccc3)sc2C(=O)O)C2CCNCC2)CC1` (stereo not drawn), the pIC50 – broadly, the IC50 on a negative log10 scale, so that one unit is a factor of ten – runs as follows: under setting [1], < 4.70; (read-out: IC50 (polymerase activity), HCV polymerase activity, list of compounds of Example 27, LITHIUM SALT) 4.70 to 5.30.

On to `O=C(O)c1sc(-c2ccccc2)cc1N(C(=O)c1ccc(Cl)cc1Cl)C1CCNCC1`, for which, under setting [2], the pIC50 was > 5.30.

`CC1CNCCC1N(C(=O)c1ccc(Cl)cc1Cl)c1cc(-c2ccccc2)sc1C(=O)O` (stereo not drawn): under setting [1], the pIC50 is > 5.30.

As for `O=C(O)c1sc(-c2ccccc2)cc1N(C(=O)c1ccc(Cl)cc1Cl)C1CCCNCC1` (stereo not drawn), the pIC50 under setting [1] was > 5.30.

Turning to `Cc1ccc(C(=O)N(c2cc(-c3ccccc3)sc2C(=O)O)C2CCNCC2)cc1`, the pIC50 under setting [2] is > 5.30.
